Compound potency records, mixed from different reports. Data source: NIAID ChemDB in PubChem.

All rows: tests in culture; agent: Mycobacterium tuberculosis

ECn is the concentration giving n% inhibition of infection, replication or growth.

compound	strain	cells	read by	endpoint	tested at	value
OC(COc1ccccc1)CN1CCOCC1	H37Rv	-	-	MIC	-	>100 µg/mL
NC(=O)c1c[n+]([O-])ccn1	H37Rv	-	BACTEC	MIC bound	-	>12.5 µg/mL
O=c1oc2ccc(F)cc2c(=O)n1-c1cccc(F)c1	CNCTC MY331/88	-	-	MIC	-	16 µM
CC[C@@H](CO)NCCN[C@@H](CC)CO	MDR17	-	broth dilution / resazurin	MIC	-	8 µg/mL
CCOC(=O)Nc1cc(N(C)C/C(=N\O)c2ccc(OC)cc2)c([N+](=O)[O-])c(N)n1	H37Rv	-	-	EC50	-	>12.5 µg/mL
CO[C@H]1/C=C/O[C@@]2(C)Oc3c(C)c(O)c4c(O)c(c5c(c4c3C2=O)NC2(CCN(CC(C)C)CC2)N=5)=NC(=O)/C(C)=C\C=C\[C@H](C)[C@H](O)[C@@H](C)[C@@H](O)[C@@H](C)[C@H](OC(C)=O)[C@@H]1C	2983 (rifampin-sensitive)	-	-	MIC	-	0.025 µg/mL
CCN(CC)CCNc1cccc2c(C)cc(=O)[nH]c12	H37Rv	-	-	MIC	-	>100 µg/mL
C/C(=N\N=C(/C)c1ccccc1)c1ccccc1	-	-	-	MIC	-	>200 µg/mL
Cc1ccc2nc3c(C)cc(=O)cc-3sc2c1	H37Rv	-	BACTEC	MIC bound	-	≤12.5 µg/mL
CC1=C(O)C(=O)CC1	H37Rv	-	-	MIC	-	50 µg/mL
CC1CCC2(O)C3(C)CC4(O)OC2(C1O)C1(O)C3(O)C(OC(=O)c2ccc[nH]2)C(O)(C(C)C)C41C	H37Rv	-	BACTEC	MIC bound	-	>12.8 µg/mL
C[C@H]1COc2c(N3CCN(C)CC3)c(F)cc3c(=O)c(C(=O)O)cn1c23	DRUG-SUS	-	-	MBC90	-	0.5 µg/mL
O=C1c2ccccc2C(=O)c2c1oc1c2ccc2ccccc21	H37Rv	-	BACTEC	inhibition	12.5 µg/mL	41%
O=c1oc2ccc([N+](=O)[O-])cc2c(=O)n1-c1ccc(Cl)cc1	CNCTC MY331/88	-	-	MIC	-	16 µM
CCCCCNCCNC12CC3CC(CC(C3)C1)C2	-	-	-	MIC	-	37.5 µM
CCOC(=O)CCCC(NC(=O)c1ccc(N2CCN(c3c(N)nc(N)nc3NC)CC2)cc1)C(=O)OCC	H37Rv	-	resazurin	inhibition	6.25 µg/mL	20%
COc1ccc(/C=C/C(=O)c2cc(I)ccc2O)cc1	H37Rv	-	-	EC50	-	>12.5 µg/mL
Cc1cccc(/C=N/Nc2ccccn2)n1	H37Rv	VERO	-	MIC	-	6.25 µg/mL
CO[C@H]1/C=C/O[C@@]2(C)Oc3c(C)c(O)c4c(O)c(c(/C=N/N5CCN(C)CC5)c(O)c4c3C2=O)NC(=O)/C(C)=C\C=C\[C@H](C)[C@H](O)[C@@H](C)[C@@H](O)[C@@H](C)[C@H](OC(C)=O)[C@@H]1C	3S	-	-	MIC	-	1 µg/mL
COc1ccc(CCNCCNCCc2ccccc2F)cc1	-	-	-	MIC	-	12.5 µM
COc1ccc(C2CC(=O)c3c(OC)cc(OC)cc3O2)cc1	-	-	-	inhibition	12.5 µg/mL	12%
CC(CNCC(c1ccccc1)c1ccccc1)NC1CCCCCCC1	-	-	-	MIC	-	50 µM
CCN(CC)Cc1ccc(Cl)cc1.Cl	H37Rv	-	-	MIC	-	>100 µg/mL
CC[C@H]1OC(=O)[C@H](C)[C@@H](O[C@H]2C[C@@](C)(OC)[C@@H](O)[C@H](C)O2)[C@H](C)[C@@H](O[C@@H]2O[C@H](C)C[C@H](N(C)C)[C@H]2O)[C@](C)(O)C[C@@H](C)C(=O)[C@H](C)[C@@H](O)[C@]1(C)O	Drug-resistant	-	-	MIC90	-	>8 µg/mL
Fc1cccc(CNCCNCCCCc2ccccc2)c1	-	-	-	MIC	-	25 µM
O=S1(=O)CCNc2ccccc2O1	H37Rv	-	BACTEC	MIC bound	-	>12.5 µg/mL
Nc1cc(S(=O)(=O)O)cc2cc(S(=O)(=O)O)cc(S(=O)(=O)O)c12	H37Rv	-	-	MIC	-	>100 µg/mL
Cc1ccc(-n2c(=O)oc3ccc(Br)cc3c2=O)cc1	CNCTC MY331/88	-	-	MIC	-	16 µM
CCCCC(O)CN(/N=C/c1ccc([N+](=O)[O-])o1)C(N)=O	H37Rv	-	BACTEC	inhibition	12.5 µg/mL	6%
O=c1cc(CCl)c2cccc(Cl)c2[nH]1	H37Rv	-	-	MIC	-	>100 µg/mL
CCOC(=O)Nc1cc(NC(C)/C(=N/O)c2ccccc2)c([N+](=O)[O-])c(N)n1	H37Rv	-	-	EC50	-	>12.5 µg/mL
CO[C@H]1/C=C/O[C@@]2(C)Oc3c(C)c(O)c4c(O)c(c(/C=N/N5CCN(C/C=C/c6ccccc6)CC5)c(O)c4c3C2=O)NC(=O)/C(C)=C\C=C\[C@H](C)[C@H](O)[C@@H](C)[C@@H](O)[C@@H](C)[C@H](OC(C)=O)[C@@H]1C	2275 (rifampin-resistant)	-	-	MBC	-	0.8 µg/mL
NNc1ccc(C(=O)O)cc1	H37Rv	-	-	MIC	-	50 µg/mL
O=C(N/N=C/c1ccc(Cl)cc1)c1ccccc1	-	-	-	MIC	-	10 µg/mL
CN(C)c1ccc2nc3ccc(=[N+](C)C)c([N+](=O)[O-])c-3sc2c1	H37Rv	-	BACTEC	MIC bound	-	>12.5 µg/mL
CC1CCCC(NCCNC(c2ccccc2)c2ccccc2)C1C	-	-	-	MIC	-	50 µM
Cl.Cl.O=C(Nc1cccc(C(=O)Nc2ccc(C3=NCCN3)cc2)c1)c1ccc(C2=NCCN2)cc1	H37Rv	-	BACTEC	MIC	-	12.5 µg/mL
Nc1ccccc1/C=C/C(=O)c1ccc(Br)cc1O	-	-	-	EC50	-	>12.5 µg/mL
CNC(N)=S	H37Rv	-	-	MIC	-	>100 µg/mL
CCOCCCNCCNCC(c1ccccc1)c1ccccc1	-	-	-	MIC	-	50 µM
COc1cc(O)c(C(=O)/C=C/c2cc(OC)c(OC)c(OC)c2)c(O)c1	H37Rv	-	-	inhibition	12.5 µg/mL	0%
CO[C@H]1/C=C/O[C@@]2(C)Oc3c(C)c(O)c4c(O)c(c(/C=N/N5CCN(C)CC5)c(O)c4c3C2=O)NC(=O)/C(C)=C\C=C\[C@H](C)[C@H](O)[C@@H](C)[C@@H](O)[C@@H](C)[C@H](OC(C)=O)[C@@H]1C	TN1595	-	-	MIC	-	>32 µg/mL
CC(=O)Nc1ccc(SSc2ccc(NC(C)=O)cc2)cc1	H37Rv	-	-	MIC	-	>100 µg/mL
O=C1C[C@@H](c2ccc(O)c(O)c2)Oc2c1c(O)cc(O)c2[C@H]1C(=O)c2c(O)cc(O)cc2O[C@@H]1c1ccc(O)cc1	-	-	-	EC50	-	>12.5 µg/mL
CO[C@H]1/C=C/O[C@@]2(C)Oc3c(C)c(O)c4c(O)c(c(/C=N/N5CCN(C6CCCC6)CC5)c(O)c4c3C2=O)NC(=O)/C(C)=C\C=C\[C@H](C)[C@H](O)[C@@H](C)[C@@H](O)[C@@H](C)[C@H](OC(C)=O)[C@@H]1C	Isolate 910328 rifampicin-resistant	-	-	MIC	-	64 µg/mL
COc1ccc2c(c1)OC(c1cccc([N+](=O)[O-])c1)CC2=O	-	-	-	EC50	-	>12.5 µg/mL
C=C(C)[C@@H]1CC[C@]2(C(=O)O)CC[C@]3(C)[C@H](CCC4[C@@]5(C)CC[C@H](C(=O)/C=C/c6ccc(O)c(O)c6)C(C)(C)[C@@H]5CC[C@]43C)[C@@H]12	H37Rv	-	BACTEC	MIC bound	-	>12.5 µg/mL
O=C(C(=O)c1ccc(Cl)cc1)c1ccc(Cl)cc1	H37Rv	-	-	MIC	-	>100 µg/mL
O=C1C(O)=C(c2ccc(Br)cc2)C(=O)C(O)=C1c1ccc(Br)cc1	H37Rv	-	BACTEC	inhibition	12.5 µg/mL	9%
CC[C@H]1OC(=O)[C@H](C)[C@@H](O[C@H]2C[C@@](C)(OC)[C@@H](O)[C@H](C)O2)[C@H](C)[C@@H](O[C@@H]2O[C@H](C)C[C@H](N(C)C)[C@H]2O)[C@](C)(OC)C[C@@H](C)C(=O)[C@H](C)[C@@H](O)[C@]1(C)O	ATCC35838	-	-	MIC	-	8 µg/mL
Fc1ccccc1CCNCCNCCC(c1ccccc1)c1ccccc1	-	-	-	MIC	-	50 µM
NNC(=O)N(c1ccccc1)c1ccccc1	H37Rv	-	-	MIC	-	>100 µg/mL
CC(C)C[C@H](NC(=O)[C@H](Cc1ccccc1)NC(=O)CNC(=O)CNC(=O)[C@@H](N)Cc1ccc(O)cc1)C(=O)O	H37Rv	-	BACTEC	inhibition	12.5 µg/mL	0%
COc1ccc(C(=O)NNC(=O)c2ccc(OC)cc2)cc1	-	-	-	MIC	-	>200 µg/mL
NCC[C@H](O)C(=O)N[C@@H]1C[C@H](N)[C@@H](O[C@H]2O[C@H](CN)[C@@H](O)[C@H](O)[C@H]2O)[C@H](O)[C@H]1O[C@H]1O[C@H](CO)[C@@H](O)[C@H](N)[C@H]1O	TN4826 (H)	-	-	MIC	-	>256 µg/mL
O=C(N/N=C/c1ccc(O)cc1O)c1ccncc1	RMP-R	-	-	MIC	-	1 µg/mL
CCOc1ccc(C(=O)N/N=C/c2ccc(NC(C)=O)cc2)cc1	-	-	-	MIC	-	>200 µg/mL
O=C(Nc1ccc(C(=O)c2ccccc2)cc1)c1ccccc1	H37Rv	-	-	MIC	-	50 µg/mL
CCOC(=O)Nc1cc(NC(C)CCCN(CC)CC)c2nc(-c3ccc(Cl)cc3)c(-c3ccc(Cl)cc3)nc2n1	H37Rv	-	-	EC50	-	<12.5 µg/mL
Cc1nc(Nc2ccccc2)sc1C(=O)NNc1ccc([N+](=O)[O-])cc1[N+](=O)[O-]	H37Rv	-	resazurin	inhibition	6.25 µg/mL	44%
CCCCCCCCCCCNCCNCCc1ccc(O)c(OC)c1	-	-	-	MIC	-	12.5 µM
CC(=O)O[C@@H]1C[C@H]2O[C@@H]3C=C(C)CC[C@]3(C)[C@]1(C)[C@]21CO1	H37Rv	-	BACTEC	inhibition	12.5 µg/mL	13%
NCCc1ccc(N)cc1	H37Rv	-	-	MIC	-	>100 µg/mL
COc1ccc2c(=O)n(-c3ccc([N+](=O)[O-])cc3)c(=O)oc2c1	CNCTC MY331/88	-	-	MIC	-	16 µM
O=C(O)c1ccc(O)c(Br)c1	H37Rv	-	-	MIC	-	>100 µg/mL
c1ccc2c(c1)nc1n2CC2(CO1)COc1nc3ccccc3n1C2	H37Rv	-	-	inhibition	6.25 µg/mL	4%
CNCC/C=C/c1cccnc1	H37Rv	-	-	MIC	-	>100 µg/mL
CC(CNCCc1ccccc1F)NC1CCCC(C)C1C	-	-	-	MIC	-	>50 µM
Cn1c(=O)n2n(c1=O)C1C3C4C5C3C13COCC53C42	H37Rv	-	resazurin	inhibition	6.25 µg/mL	-13%
c1ccc(CCCCNCCNCc2ccc3c(c2)OCO3)cc1	-	-	-	MIC	-	25 µM
CC(=O)Nc1ccc(C(=O)C(=O)c2ccc(NC(C)=O)cc2)cc1	H37Rv	-	-	MIC	-	>100 µg/mL
COC1=CC(=O)C=C(CO)C1=O	H37Rv	-	BACTEC	MIC	-	≥12.5 µg/mL
NCCS(=O)(=O)O	H37Rv	-	-	MIC	-	>100 µg/mL
CC1CCCC(NCCNCC(c2ccccc2)c2ccccc2)C1C	-	-	-	MIC	-	18.8 µM
CC1CC(=O)CC(=O)C1	H37Rv	-	-	MIC	-	>100 µg/mL
NCCNC(=S)S	H37Rv	-	BACTEC	MIC	-	32 µg/mL
CC(C)c1ccc2c(c1)CC[C@H]1[C@](C)(CNCCNCC(O)c3ccccc3)CCC[C@]21C	-	-	-	MIC	-	12.5 µM
Nc1c(Cl)cc(Cl)cc1Cl	H37Rv	-	-	MIC	-	>100 µg/mL
CCOC(=O)Nc1cc2c(c(N)n1)N=C(CN(C)c1ccccc1)CN2	H37Rv	-	-	EC50	-	<12.5 µg/mL
O=S(=O)([O-])Nc1cccc(NS(=O)(=O)[O-])c1.[Na+].[Na+]	H37Rv	-	-	MIC	-	>100 µg/mL
CC(=O)NC[C@H]1CN(c2ccc(N3CCOCC3)c(F)c2)C(=O)O1	10S	-	-	MIC	-	0.25 µg/mL
CCOC(=O)Nc1cc(NC(O)/C(=C/O)c2cccc([N+](=O)[O-])c2)c([N+](=O)[O-])c(N)n1	H37Rv	-	-	inhibition	12.5 µg/mL	4%
OC1(CNCCNCCCCc2ccccc2)CCCCC1	-	-	-	MIC	-	25 µM
CCOC(=O)Nc1cc(N)c2nc(-c3ccccc3)c(N)nc2n1	H37Rv	-	-	EC50	-	>12.5 µg/mL
NC(=O)c1cnccn1	Isolate 9721 monodrug-resistant	-	-	MIC	-	>300 µg/mL
COc1cccc(CNCCNC[C@]2(C)CCC[C@]3(C)c4ccc(C(C)C)cc4CC[C@@H]23)c1OC	-	-	-	MIC	-	25 µM
C[C@@H]1CN(c2c(F)c(N)c3c(=O)c(C(=O)O)cn(C4CC4)c3c2F)C[C@H](C)N1	DRUG-SUS	-	-	MIC50	-	0.06 µg/mL

MIC50, MIC90 and the like: level of inhibition, or share of isolates inhibited. Percent inhibition refers to the dose given; in toxicity tests it is the harm to the cells. Blank or dashed fields: not listed here. MIC bound comes from a single tested concentration. Neighbouring rows are from separate reports.